In paper PMC3973317, “Solution structure and tandem DNA recognition of the C-terminal effector domain of PmrA from Klebsiella pneumoniae” one finds binding result and Kd data, which are given here for one sequence.

The exact form of at least one protein or probe is not confirmed. Protein sequences can lack the tags named with them.

For orientation: Kd means the equilibrium constant for the complex coming apart.

Data set [1] addresses T1, PmrAF (BeF3- activated full-length PmrA) W181G,I220D (Klebsiella pneumoniae) (UniProt W9BNR5).
T1 sequence (looked up): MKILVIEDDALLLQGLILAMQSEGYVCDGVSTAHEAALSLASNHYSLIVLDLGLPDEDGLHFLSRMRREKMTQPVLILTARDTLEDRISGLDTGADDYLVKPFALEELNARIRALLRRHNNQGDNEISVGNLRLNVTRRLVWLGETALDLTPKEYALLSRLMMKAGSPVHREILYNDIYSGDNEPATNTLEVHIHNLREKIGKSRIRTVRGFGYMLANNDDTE
The data set is described as follows: CD. The conditions noted are these: 273 nm signal decreases from 25.6 to 22.6 mdeg, 20 mM sodium phosphate, 30 mM NaCl, pH 6.0, recombinant protein, residues 1-223, protein details: N-terminal extra Met, C-terminal LEHHHHHH, label: 5' 6-FAM (fluorescence polarization), none (NMR). On the technique in general: Fluorescence polarisation rises when a labelled molecule tumbles more slowly, as on binding a larger partner.

Data set [2] has as its target T1, PmrAF (BeF3- activated full-length PmrA) W181G,I220D (Klebsiella pneumoniae). In words: NMR. The conditions noted are these: both half-sites bound simultaneously, 20 mM sodium phosphate, 30 mM NaCl, pH 6.0, NMR at 298 K, recombinant protein, residues 1-223, protein details: N-terminal extra Met, C-terminal LEHHHHHH, label: 5' 6-FAM (fluorescence polarization), none (NMR).

For data set [3] the target is unchanged. In words: fluorescence polarization. The conditions noted are these: one-site fit, 20 mM sodium phosphate, 30 mM NaCl, pH 6.0, FP with 12 nM 6-FAM DNA (temperature not stated), recombinant protein, residues …, protein details: N-terminal extra Met, C-terminal LEHHHHHH, label: 5' 6-FAM (fluorescence polarization), none (NMR).

As for “ATTTCTTAATATTATCCTAAGCAAG (double strand) [box1]”, the binding result in data set [1] and in data set [2] was “binds” each time. In addition, the Kd in data set [3] is 45 nM.
